Assay results published in the supplement of paper PMC9931576.
Human monoclonal antibodies against the spike receptor-binding domain (heavy:light variable regions). IC50 against pseudoviruses bearing the spike of naturally observed variants; lower = stronger; >10 µg/ml means not reached at the top dose. No active / inactive call. The stated detection limit is 0.0005 µg/ml; values near or below 0.001 µg/ml lie at the floor of the assay.

B1: BD56-118 (protein)
chain 1: QVQLVQSGAEVKKPGSSVKVSCKASGGTLSSYAIRWVRQAPGQGLEWMGMIIPIFGTTNYAQKFQGRVTITADESTSTVYMELSSLRSEDTAVYYCARDLEHSPLYGMDVWGQGTTVTVSS
chain 2: DIQMTQSPSSLSASIGDRVTITCRASQSISRYLNWYQQKPGKAPKLLIFAASSLQSGVPSKFSGGGSGTDFTLTISSLQPEDFATYFCQQTYSSPHTFGRGTKVEIK
B2: BD56-136 (protein)
chain 1: QVQLVQSGAEVKKPGASVKVSCKASGYTFTNYYTHWVRQAPGQGLEWMGIINPSGGGTSYAPKFQGRVTMTRDPSTSTVYMALSSLRSEDTAVYYCARDSSEYNSNYPNAFDIWGQGTMVTVSS
chain 2: QSALTQPASVSGSPGQSVTISCAGTSGDIGGYNYVSWYQQHPGKAPKVIIYDVSKRPSGVSNRFSGSKSGNTASLTISGLQAEDEADYYCSSYTSTSTYLFGTGTKVTVL
B3: BD56-137 (protein)
chain 1: QVQLVQSGSEVKKPGASVKVSCKASGYTFTDYAMNWVRQAPGQGLEWMGWINTNTGNPTYAQGFTGRFVFSLDTSVSTAYLQISNLKAEDTAVYYCARIWSYWNDASDAFDIWGQGTMVTVSS
chain 2: QSALTQPASVSGSPGQSITISCTGTSSTVGSYNLVSWFQQHPGKAPKLIIYEGTKRPSGVSSRFSGSKSGNTASLTISGLQAGDEADYYCCSYATTTTWVFGGGTMLTVL
B4: BD56-103 (protein)
chain 1: QITLKESDPTLVKPTQTLTLTCTFSGFSLNTSGVGVGWIRQPPGKALEWLALIFWNDDKRYSPSLTSRLTITKDTSKNQVVLTMSDVDPVDTATYFCAHKSRPYSVAYYDDYYFDYWGQGTLVSVSS
chain 2: SNELTQPPSVSVSPGQTARITCSGDAFPNQYAYWYQQKPGQAPVVVMYKDSERPSGIPERFSGSSSGTTVTLTISGVQAEDEAAYYCQTADSSGTVFGGGTKLTVL
B5: BD56-130 (protein)
chain 1: EVQLVESGGGLAQPGGSLRLSCAASGFTFSNYDMHWVRQATGKGLEWVSGIGTSGDTYYEGSVKGRFTISRENAKNSLYLQMNSLRAGDTAVYFCARGDASGYIYYFDYWGQGTLVTVSS
chain 2: DIQMTQSPSSLSASVGDRVTLTCRASQSIGTYLNWYQQKPGKAPKLLIFAASSLRSGVPSRFSGSGSGTDFTLSISSLQPEDFATYHCQQSYSSPPWTFGQGTKVEMK
B6: BD56-109 (protein)
chain 1: QVQLVESGGGVVQPGRSLRLSCAASGFTFSNYGIHWVRQAPGKGLEWVAVISDDGSYRDYADSVKGRFTISRDNPKNTVYVQMNSLRLEDTAVYYCARDEGAMVTHFDFWGQGTLVTVSS
chain 2: DIQMTQSPSSLSASVGDRVTITCRASQSIRGYLSWYQQKPGKAPNLLIYAASTLQSGVPSRFSGSGSGTDFTLTISSLQPEDFATYYCQQSYNTPPWTFGQGTKVEIK
B7: BD56-120 (protein)
chain 1: QVHLVESGGGVVHPGRSLRLSCAASGFTFSNYGMHWVRQAPGKGLEWVAAIWYDGSNKYYADSVKGRFTISRDNSKNTLYLQMNSLRAEDTAVYHCARDFAVDNSMVTWFDPWGQGTLVTVSS
chain 2: DIQMTQSPSSLSASVGDRVTISCRASQSISNYLYWYQQKPGKAPKLLIYAASSLQSGVPSRFSGRGSGTDFTLTISGLQPEDFGTYYCQQSYNTPPWTFGQGTKVEIK
B8: BD56-141 (protein)
chain 1: EVQLVESGGGLVQPGGSLRLSCAASGFTFPSYALSWVRQAPGKGLEWVSALSVSGDNTYYADSVKGRFTISRDNSKSTLYLQMNSLRAEDTAFYYCALIPDRGRWLNLNWFDPWGQGTLVTVSS
chain 2: EIVLTQSPDTLSLSPGERATLSCRASQTVSGYLAWYQQRPGQAPRLLIYDASNRAPGIPTRFSGSGSGTDFTLTISSLEPEDFAVYYCQQSSSFGPGTKVDIK
B9: BD56-106 (protein)
chain 1: QVQLVQSGAEVKKPGSSVKVSCKASRGTFSSYGISWVRQAPGQGLEWVGGIIPIFGTANYAQRFKGRVTITADESTSTAYMELSNLRSDDTGVYYCGRTYYYDSDGVAEGTDYWGQGTLVTVSS
chain 2: DIQLTQSPSFLSASVGDRVTITCRASQGISSYLAWYQQKPGEAPKLLIYAASTLQSGVPSRFSGSGSGTEFTLTISSLQPEDFATYYCQKLNSYPWTIGQGTKVEIK
B10: BD56-142 (protein)
chain 1: EVQLEESGGGLVQPGGSLRLSCAASGFTFSTYDMHWVRQVTGKGLEWVSTIGTAGDTYYPGSVKGRFTVSRENAKNSLYLQMNSLRTGDTAVYYCARVEYTYDNLYWYIDLWGRGTLVTVSS
chain 2: DIQMTQSPSSLSASVGDRVTITCRASQSVGRYLNWYQQKPGKAPKLLIYTASSLQTGVPSRFSGSGSGTDFTLTISSLQPEDFATYYCQQSYTNPHYSFGLGTKLEVK
B11: BD56-131 (protein)
chain 1: QVQLQESGPGLVKPSETLSLKCLVSGFSISSGFYGGYIRQPPGKGLEWIGSFYHSGSTYYNPSLKTRVTILVDASKNQFSLKLTSVTAADTAVYYCARLMHPDDSSLSVWFDPWGKGTLVTVST
chain 2: SYDLTQPPSVSVSPGQTAIITCSGYKLGDKYVSWYQQKPGQSPVLVIYQDSKRPSGIPERFSGSNSGNTATLTISGTQAMDEADFYCQTWDSNTVVFGRGTKVTVL
B12: BD56-108 (protein)
chain 1: EVQLVQSGAEVKKPGTTVKISCKGSGFIFTNNYMQWVQQAPGKGLEWMGLVDPEDGETRYAENFQGRVTITADTSTDTSYMELSSLRSEDTAVYYCAAVAKYSSAWRNFDFWGQGTLVTVSS
chain 2: QTVVTQEPSLTVSPGGTVTLTCASSTGAVTSAYFPNWFQQKPGQPPRPLIYSTSNKHSWTPARFSGSLLGGKAALTLSGVQPEDEADYYCLLNHGHAHWVFGGGTKLTVL

Assays:
Assay in all cases: pseudovirus neutralization IC50; higher = weaker neutralization
[1] = biological target: SARS-CoV-2 Omicron BA.1 spike pseudovirus
Method: (§1)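 Single-round VSV luciferase pseudovirus mixed with antibody dilutions for 1 h and put on Huh-7 cells for about a day; IC50 from the dose curve.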

[2] = biological target: SARS-CoV-2 Omicron BA.2 spike pseudovirus
Method: as §1

[3] = biological target: SARS-CoV-2 Omicron BA.2.75 spike pseudovirus
Method: as §1

[4] = biological target: SARS-CoV-2 Omicron BA.5 spike pseudovirus
Method: as §1

[5] = biological target: SARS-CoV-2 Omicron BQ.1.1 spike pseudovirus
Method: as §1

[6] = biological target: SARS-CoV-2 Omicron XBB spike pseudovirus
Method: as §1

[7] = biological target: SARS-CoV-2 early D614G spike pseudovirus
Method: as §1

Row | Binder | pseudovirus neutralization IC50 [1] [µg/mL] | pseudovirus neutralization IC50 [2] [µg/mL] | pseudovirus neutralization IC50 [3] [µg/mL] | pseudovirus neutralization IC50 [4] [µg/mL] | pseudovirus neutralization IC50 [5] [µg/mL] | pseudovirus neutralization IC50 [6] [µg/mL] | pseudovirus neutralization IC50 [7] [µg/mL]
1 | B1 | 0.584 | 0.479 | 0.548 | > 10 | > 10 | > 10 | 0.202
2 | B2 | > 10 | > 10 | > 10 | > 10 | > 10 | > 10 | > 10
3 | B3 | 1.92 | 1.93 | 1.69 | 1.48 | > 10 | > 10 | 1.36
4 | B4 | 6.57 | 5.39 | 8.24 | 5.82 | 3.53 | 5.55 | 4.54
5 | B5 | > 10 | > 10 | > 10 | > 10 | > 10 | > 10 | > 10
6 | B6 | 3.66 | 3.54 | 3.72 | 3.74 | 6.71 | 7.6 | 1.64
7 | B7 | > 10 | > 10 | > 10 | > 10 | > 10 | > 10 | > 10
8 | B8 | > 10 | > 10 | > 10 | > 10 | > 10 | > 10 | > 10
9 | B9 | 0.171 | 0.198 | 0.23 | 0.172 | > 10 | 5.88 | 0.187
10 | B10 | > 10 | > 10 | > 10 | > 10 | > 10 | > 10 | > 10
11 | B11 | > 10 | > 10 | > 10 | > 10 | > 10 | > 10 | > 10
12 | B12 | 0.00104 | 0.000903 | 0.0008 | 2.6 | > 10 | 3.41 | 0.0194
